# Measurements as given in PubChem BioAssay AID624414 (National Center for Advancing Translational Sciences (NCATS), 2012).
# Chains of the proteins cited; added tags and fusions are not shown.
# UniProt Q9GZU1, whole entry, looked up: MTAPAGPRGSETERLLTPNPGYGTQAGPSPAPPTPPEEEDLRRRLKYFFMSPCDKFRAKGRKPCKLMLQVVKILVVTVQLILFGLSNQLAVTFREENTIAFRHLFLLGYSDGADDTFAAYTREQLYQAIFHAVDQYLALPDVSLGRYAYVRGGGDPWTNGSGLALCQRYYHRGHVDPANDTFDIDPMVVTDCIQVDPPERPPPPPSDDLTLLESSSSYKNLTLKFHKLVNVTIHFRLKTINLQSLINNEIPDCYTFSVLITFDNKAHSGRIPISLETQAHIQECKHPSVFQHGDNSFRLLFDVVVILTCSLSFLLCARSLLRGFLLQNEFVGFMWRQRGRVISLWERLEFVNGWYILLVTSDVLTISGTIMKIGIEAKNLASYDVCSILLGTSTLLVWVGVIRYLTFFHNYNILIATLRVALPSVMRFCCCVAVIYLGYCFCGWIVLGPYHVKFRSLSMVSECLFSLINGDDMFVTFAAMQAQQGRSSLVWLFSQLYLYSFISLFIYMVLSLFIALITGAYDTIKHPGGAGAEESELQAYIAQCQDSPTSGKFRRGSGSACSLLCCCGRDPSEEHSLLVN
# Only a part is listed here, and it is no random draw. The source made the active and inactive calls. Rule as the data show it: active = activation above about 50%; inconclusive = mostly about 30% to 49%; inactive = weaker than that.
# Target: Mucolipin-1 (Homo sapiens) (UniProt Q9GZU1)
# Test: qHTS for Agonists of the Human Mucolipin Transient Receptor Potential 1 (TRPML1); also: 0% is about no effect
# Settings: TRPML1-expressing cells, Ca2+ dye fluorescence, FDSS; active compounds read high
# Source text: Mutations of human Mucolipin transient receptor potential 1 (TRPML1) cause type IV mucolipidosis (ML4), a devastating neurodegenerative disease in young children. […] Currently, there is no treatment for ML4. […] Under physiological conditions, TRPMLs regulate membrane trafficking by transducing information about PI(3,5)P2 levels into changes in juxtaorganellar Ca2+, thereby triggering membrane fusion/fission events in the late endocytic pathways (endolysosomal trafficking). In addition, TRPML1 mediates release of Fe2+ from late endosomes and lysosomes, which is essential for cellular iron metabolism. Thus, impaired ion (Ca2+ and Fe2+) homeostasis underlies lysosomal dysfunction and ML4 phenotypes. In ML4 cells, the problem is twofold. First, defective Ca2+-dependent membrane trafficking due to TRPML1-deficiency causes accumulation of lipids and other bio-materials in the lysosome. […]
# TRPML1-DL cells are dissociated from flasks, counted and, brought up to a density of 500,000 cells per mL of media containing a 1X Tet inducer. […] The assay plate is read on the FDSS using the following protocol: 10 second baseline read, 23nL of compounds and controls are added using 1536 pintool, agonist read for 110 seconds, 1 uL EC80 addition (4uM final 54-4 diluted in media), antagonist read for 110 seconds.
row,Structure (SMILES),activation
1,O=[N+]([O-])c1cc(Oc2ccc([N+](=O)[O-])cc2C(F)(F)F)cc([N+](=O)[O-])c1,active: 94.9%
